The exact form of at least one protein or probe is not confirmed. At least one verdict rests on a figure or table, not on a statement of the authors. Protein sequences can lack the tags named with them.
Key:
[1] = target: T1, M2-1 (human respiratory syncytial virus (strain A2)) (UniProt P04545); assay: EMSA; settings: EDTA gradient, complex unchanged; EMSA: 20 mM HEPES pH 7.5, 200 mM NaCl, 2 mM TCEP, 5% glycerol, room temperature 1 h, 4% native PAGE, SYBR Gold; recombinant protein; residues 1-194; protein details: N-terminal His6-GFP, cleaved with TEV
T1 sequence (looked up): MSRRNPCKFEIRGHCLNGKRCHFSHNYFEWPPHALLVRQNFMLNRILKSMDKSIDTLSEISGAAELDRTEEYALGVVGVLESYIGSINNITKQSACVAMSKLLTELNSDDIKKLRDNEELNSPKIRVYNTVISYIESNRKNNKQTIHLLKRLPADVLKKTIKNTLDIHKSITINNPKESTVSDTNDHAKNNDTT

[2] = target: T1, M2-1 (human respiratory syncytial virus (strain A2)); assay: negative stain EM; settings: M2-1:RNA 15.1, 1.8, 0.4, particles about 140 A; SEC: Superdex 200 Increase 10/300, buffer not given; recombinant protein; residues 1-194; protein details: N-terminal His6-GFP, cleaved with TEV
[3] = target: T1, M2-1 (human respiratory syncytial virus (strain A2)); assay: SEC; settings: excess RNA; SEC: Superdex 200 Increase 10/300, buffer not given; recombinant protein; residues 1-194; protein details: N-terminal His6-GFP, cleaved with TEV

Sequence | binding result [1] | binding result [2] | binding result [3]
AAAAAAAAAAAAAAAAAAAAAAAA [Poly24A] | binds | binds | 
AAAAAAAAAAAAAAA [Poly15A] |  |  | binds

From paper PMC11334520, “In vitro higher-order oligomeric assembly of the respiratory syncytial virus M2-1 protein with longer RNAs”
